Results of unrelated studies side by side (data: NIAID ChemDB).

Shared fields: growth or infection tests; species: HIV-1; read-out: inhibition

Percent inhibition refers to the dose given; in toxicity tests it is the harm to the cells. Conditions beyond the fields shown may differ between rows. a–b is a range or a potency band. Blank or dashed fields: not listed here.

smiles	cells	strain or isolate	setting	dose	read by	result
Cc1cn([C@H]2C[C@H](N=[N+]=[N-])[C@@H](COP(=O)(O)OCCO[C@H]3O[C@H](CO)[C@@H](O)[C@H](O)[C@@H]3O)O2)c(=O)[nH]c1=O	CEM	LAV-Bru	15 d	0.2 µM	RT activity	86%
C=C(C)[C@@H]1CC[C@]2(C(=O)O)CC[C@]3(C)C(CCC4[C@@]5(C)CC[C@H](OC(=O)CN(OC)[C@H]6OC[C@H](O)[C@@H](O)[C@H]6O)C(C)(C)C5CC[C@]43C)C12		IIIB		10 µM	cytopathic effect	5%
CC1CN(C(=O)c2ccccc2)CC(C)N1C(=O)C(=O)c1c[nH]c2cccc(F)c12	HeLa + HELA CD4+/CCR5			10 µM	luciferase	>98%
CC(=O)CCCCn1c(=O)c2c(ncn2C)n(C)c1=O	PBMC			250 µM	RT activity	70%
O=P(O)(O)OP(=O)(O)OP(=O)(O)O	MOLT-4/MOLT-3	IIIB		160 µg/mL	syncytia	0%
O=C(C(=O)N1CCN(C(=O)c2ccccc2)CC1)c1c[nH]c2ccc(F)cc12	MT-2	BRU		10 µM	RT activity	94.6%
C=C(C)[C@@H]1CC[C@]2(C(=O)NCCCCCCCC(=O)N[C@@H](CC(C)C)[C@@H](O)CC(=O)O)CC[C@]3(C)[C@H](CC[C@@H]4[C@@]5(C)CC[C@H](O)C(C)(C)[C@@H]5CC[C@]43C)[C@@H]12	HeLa P4 + HeLa	LN7 (H91L)		10 µM	syncytia	>99%
COC(=O)N[C@H]1C[C@H](n2cc(C)c(=O)[nH]c2=O)O[C@@H]1CO	CEM	LAV		100 µM	cytopathic effect	0%
Cc1ccc(S(=O)(=O)O)cc1.N/C(=N\N=C\c1ccc(O)c(O)c1)NO	CEM	IIIB		10 µg/mL	cytopathic effect	0%
S=C1N=C(Cl)C2(NN1)c1ccccc1-c1ccccc12	CEM			20 µM	cytopathic effect / XTT	32.82%
COC(=O)CCCCCCCCCCNC(=O)[C@]12CCC(C)(C)C[C@H]1C1=CC[C@@H]3[C@@]4(C)C[C@@H](O)[C@H](O)C(C)(C)[C@@H]4CC[C@@]3(C)[C@]1(C)CC2	MT-2	pNL4-3		10 µM	p24 / ELISA	33.1%
CCCCCCCCCCCCCCCC(=O)OC[C@H]1O[C@@H](n2cnc3c(N)ncnc32)[C@@H]1CO	MT-4			100 µg/mL	antigen	99.9%
CCOC(=O)/C=C/c1ccc(OC(=O)CCC(=O)Oc2c(C)c(C)c3c(c2C)CC[C@@](C)(CCC[C@H](C)CCC[C@H](C)CCCC(C)C)O3)cc1	U1/HIV-1 (TNF-alpha stimulated) + U1			1 µM		22%
CC1(C)[C@@H](O[C@H]2O[C@H](C(=O)O)[C@@H](O)[C@H](O)[C@H]2O[C@@H]2O[C@H](C(=O)O)[C@@H](O)[C@H](O)[C@H]2O)CC[C@]2(C)[C@H]3C(=O)C=C4[C@@H]5C[C@@](C)(C(=O)O)CC[C@]5(C)CC[C@@]4(C)[C@]3(C)CC[C@@H]12	MOLT-4	IIIB	3 d	1200 µM	antigen	36.2%
CCC1CN(C(=O)c2ccccc2)CCN1C(=O)C(=O)c1c[nH]c2c(C(=O)OC)cccc12	HeLa + HELA CD4+/CCR5			10 µM	luciferase	>98%
N/C(=N\N=C\c1cccc(F)c1)NO	CEM	IIIB		10 µg/mL	cytopathic effect	18%
Cc1ccc(-c2ccc3c(c2)C=C(C(=O)Nc2ccc(C[N+](C)(C)C4CCOCC4)cc2)CCC3)cc1	PBMC	COT2 CLADE C		1 µM	p24	98.5%
Cc1cn([C@H]2C[C@H](NC=O)[C@@H](CO)O2)c(=O)[nH]c1=O	CEM	LAV		100 µM	cytopathic effect	0%
[N-]=[N+]=N[C@H]1[C@H](n2cnc3c(N)ncnc32)O[C@@H]1CO	MT-4			10 µg/mL	antigen	25%
CC(=O)Oc1cccc(C(=O)N2CCN(C(=O)C(=O)c3c[nH]c4cccc(Cl)c34)CC2)c1	HeLa + HELA CD4+/CCR5			10 µM	luciferase	>98%
c1ccc(C2SCc3nc4cc5ccccc5cc4n32)cc1	CEM + CEM-SS	RF		200 µM		15.01%
Nc1nc(N)c2ncn([C@@H]3O[C@H](CO)C[C@@H]3F)c2n1	ATH-8 + ATH8	LAI		1 µM	cytopathic effect / XTT	23%
O=c1[nH]cnc2c1ncn2[C@@H]1O[C@H](CO)[C@H]1COS(=O)(=O)O	MT-4			10 µg/mL	antigen	90%
CN(C(=O)[C@H](Cc1ccccc1)NC(=O)CNC(=O)c1ccccc1)c1cccc(Cl)c1	TZM-gfp	NL4-3		0.1 µM	GFP	42.11%
CC1(C)CC[C@]2(C(=O)NCCCC(=O)O)CC[C@]3(C)C(=CC[C@@H]4[C@@]5(C)C[C@@H](O)[C@H](O)C(C)(C)[C@@H]5CC[C@]43C)[C@@H]2C1	MT-2	pNL4-3		10 µM	p24 / ELISA	-26.4%
CC[C@H](CO)Nc1nc(NCc2ccc(-c3ccccc3)cc2)n2ncc(C(C)C)c2n1	OM-10.1			0.05 µM	trypan blue	1–5%
CO[C@H]1C[C@@H]2CC[C@@H](C)[C@@](O)(O2)C(=O)C(=O)N2CCCC[C@H]2C(=O)O[C@H]([C@H](C)C[C@@H]2CC[C@@H](O)[C@H](OC)C2)CC(=O)[C@H](C)/C=C(\C)[C@@H](O)[C@@H](OC)C(=O)[C@H](C)C[C@H](C)/C=C/C=C/C=C/1C	PBMC	CC101.19 R5 AD101-resistant		0.0005 µM	p24	95%
CCCCCCCCCCCCCCCCOP(=O)(OCCO[C@@H]1O[C@H](CO)[C@@H](O)[C@H](O)[C@@H]1O)OC[C@H]1O[C@@H](n2cc(C)c(=O)[nH]c2=O)C[C@@H]1N=[N+]=[N-]	CEM	LAV-Bru	15 d	0.2 µM	RT activity	87%
C=C(C)[C@@H]1CC[C@]2(C(=O)O)CC[C@]3(C)C(CCC4[C@@]5(C)CC[C@H](OC(=O)CN(OC)[C@@H]6OC[C@@H](O)[C@H](O)[C@H]6O)C(C)(C)C5CC[C@]43C)C12		IIIB		10 µM	cytopathic effect	4%
CC(C)[C@H](NC(=O)[C@H](Cc1ccccc1)C[C@H](O)[C@H](Cc1ccccc1)NC(=O)OC(C)(C)C)C(=O)N[C@@H](Cc1ccccc1)C(=O)N1CCOCC1	MT-2	LAV		0.1 µM	RT activity	90%
CCc1nc2cc3ccccc3cc2cc1C(=O)N[C@@H](C/C=C/C[C@H](NC(=O)c1cc2cc3ccccc3cc2nc1CC)C(=O)N1CCC[C@H]1C(=O)N[C@@H](Cc1ccccc1)C(=O)NCCCN)C(=O)N1CCC[C@H]1C(=O)N[C@@H](Cc1ccccc1)C(=O)NCCCN	TZM-bl + HEK293T		pseudotyped	40 µM	luciferase	>90%
C=C(C)[C@@H]1CC[C@]2(C(=O)O)CC[C@]3(C)C(CCC4[C@@]5(C)CC[C@H](OC(=O)CN(OC)C6OC[C@H](O)[C@H](O)[C@H]6O)C(C)(C)C5CC[C@]43C)C12		IIIB		10 µM	cytopathic effect	4%
Nc1nc2c(ncn2[C@H]2CC[C@@H](CO)O2)c(=O)[nH]1	ATH-8 + ATH8	LAI		2 µM	cytopathic effect / XTT	75%
O=C(C(=O)N1CCN(C(=O)c2ccccc2)CC1)c1c[nH]c2cccc(F)c12	MT-2	BRU		10 µM	RT activity	>98%
Cc1ccc(N(C)C(=O)[C@H](Cc2ccccc2)NC(=O)CC2NC(=O)NC2=O)cc1	TZM-gfp	NL4-3		0.1 µM	GFP	3.22%
CCN(CC)CCCC(C)Nc1ccnc2cc(Cl)ccc12	H9			100 µM	p24	76.45%
CC(C)[C@H](NC(=O)[C@H](CO)NC(=O)[C@@H](N)CSSCC(=O)O)C(=O)N[C@H](C(=O)N[C@@H](CSSCC(=O)O)C(=O)NCC(=O)O)[C@@H](C)O	PBMC(PHA STIM.) + PBMC	BaL		0.132 µM	p24	30%
CC(=O)N[C@@H](Cc1c[nH]c2ccccc12)C(=O)N[C@H](C(=O)N[C@@H](Cc1ccccc1)[C@H](O)[C@@H](O)[C@@H]1CCCN1C(=O)[C@@H](NC(=O)[C@H](Cc1c[nH]c2ccccc12)NC(C)=O)C(C)C)C(C)C	MT-2	IIIB		0.005 µM	MTT	<10%
Cc1cn([C@H]2C[C@H](NCC#N)[C@@H](CO)O2)c(=O)[nH]c1=O	CEM	LAV		100 µM	cytopathic effect	0%
CC(C)[C@H](NC(=O)[C@H](CO)NC(=O)[C@@H](N)CS)C(=O)N[C@H](C(=O)N[C@@H](CS)C(=O)NCC(=O)O)[C@@H](C)O	PBMC(PHA STIM.) + PBMC	BaL		0.66 µM	p24	0%
O=C(O)C(SC1=NNC2(C(=O)N1)c1ccccc1-c1ccccc12)SC1=NNC2(C(=O)N1)c1ccccc1-c1ccccc12	CEM			20 µM	cytopathic effect / XTT	36.96%
Nc1ccccc1C(=O)N1CCN(C(=O)C(=O)c2c[nH]c3ccccc23)CC1	HeLa + HELA CD4+/CCR5			10 µM	luciferase	36%
Cc1cn(CC(=O)N[C@@H](Cc2ccccc2)C(=O)N(C)c2ccccc2)c(=O)[nH]c1=O	TZM-gfp	NL4-3		0.1 µM	GFP	36.8%
Nc1ncnc2c1ncn2[C@@H]1O[C@H](CO)[C@H]1F	MT-4			100 µg/mL	antigen	>99.9%
C[C@H](NC(=O)[C@]12CCC(C)(C)C[C@H]1C1=CC[C@@H]3[C@@]4(C)C[C@@H](O)[C@H](O)C(C)(C)[C@@H]4CC[C@@]3(C)[C@]1(C)CC2)C(=O)NCC(=O)O	MT-2	pNL4-3		25 µM	p24 / ELISA	-84.8%
Cc1ccc(S(=O)(=O)O)cc1.N/C(=N\N=C\c1ccccc1)NO	CEM	IIIB		10 µg/mL	cytopathic effect	12%
O=C(O)CSC1=NNC2(C(=O)N1)c1ccccc1-c1ccccc12	CEM			63 µM	cytopathic effect / XTT	21.96%
N=C1Sc2ccccc2C2=NCCCN12	TZM-bl	98IN017		1.8 µM	β-galactosidase	90%
COC(=O)[C@H](C)NC(=O)[C@]12CCC(C)(C)C[C@H]1C1=CC[C@@H]3[C@@]4(C)C[C@@H](O)[C@H](O)C(C)(C)[C@@H]4CC[C@@]3(C)[C@]1(C)CC2	MT-2	pNL4-3		25 µM	p24 / ELISA	91.1%
O=C1NC(=S)NNC12c1ccccc1-c1ccccc12	CEM			200 µM	cytopathic effect / XTT	12.89%
COC(=O)CCCNC(=O)[C@]12CCC(C)(C)C[C@H]1C1=CC[C@@H]3[C@@]4(C)C[C@@H](O)[C@H](O)C(C)(C)[C@@H]4CC[C@@]3(C)[C@]1(C)CC2	MT-2	pNL4-3		25 µM	p24 / ELISA	88%
C[C@H](Cn1cnc2c(N)ncnc21)OCP(=O)(O)O	C8166	IIIB		1.09 µg/mL	p24 / ELISA	90%
O=C1NC(SC(SC2=NNC3(C(=O)N2)c2ccccc2-c2ccccc23)=C(SC2=NNC3(C(=O)N2)c2ccccc2-c2ccccc23)SC2=NNC3(C(=O)N2)c2ccccc2-c2ccccc23)=NNC12c1ccccc1-c1ccccc12	CEM			63 µM	cytopathic effect / XTT	37.76%
C=C(C)[C@@H]1CC[C@]2(C(=O)O)CC[C@]3(C)C(CCC4[C@@]5(C)CC[C@H](OC(=O)CN(OC)C6O[C@@H](CO)[C@@H](O)[C@@H](O)[C@@H]6O)C(C)(C)C5CC[C@]43C)C12		IIIB		10 µM	cytopathic effect	6%
O=C(C(=O)N1CCN(C(=O)c2ccc(F)cc2F)CC1)c1c[nH]c2ccccc12	MT-2	BRU		10 µM	RT activity	28.5%
C=C(C)[C@@H]1CC[C@]2(C(=O)O)CC[C@]3(C)C(CCC4[C@@]5(C)CC[C@H](OC(=O)CN(OC)C6O[C@H](CO)[C@@H](O)[C@H](O)[C@@H]6O)C(C)(C)C5CC[C@]43C)C12		IIIB		10 µM	cytopathic effect	12%
COc1cc(Br)c(/C=N/N=C(\N)NO)cc1OC.Cc1ccc(S(=O)(=O)O)cc1	CEM	IIIB		10 µg/mL	cytopathic effect	35%
C=C(C)[C@@H]1CC[C@]2(C(=O)O)CC[C@]3(C)C(CCC4[C@@]5(C)CC[C@H](OC(=O)CN(OC)C6O[C@H](C(=O)O)[C@H](O)[C@H](O)[C@H]6O)C(C)(C)C5CC[C@]43C)C12		IIIB		10 µM	cytopathic effect	1%
COc1ccc(/C=N/N=C(\N)NO)cc1O.Cc1ccc(S(=O)(=O)O)cc1	CEM	IIIB		10 µg/mL	cytopathic effect	10%
CCCCC(=O)OC[C@H]1O[C@@H](n2cnc3c(N)ncnc32)[C@@H]1CO	MT-4			3 µg/mL	antigen	95%
CCCCCCCCCCCCCCCCOP(=O)(OC[C@H]1OC(O)[C@@H](O)[C@@H](O)[C@@H]1O)OC[C@H]1O[C@@H](n2cc(C)c(=O)[nH]c2=O)C[C@@H]1N=[N+]=[N-]	U-937	LAV-Bru	11 d	1 µM	RT activity	0%
Clc1cccc(Cl)c1C1SCc2nc3cc4ccccc4cc3n21	CEM + CEM-SS	RF		200 µM		21.86%

A second listing of 7 rows from above:

| smiles | cells | strain or isolate | setting | dose | read by | result |
|---|---|---|---|---|---|---|
| COc1cc(Br)c(/C=N/N=C(\N)NO)cc1OC.Cc1ccc(S(=O)(=O)O)cc1 | CEM | IIIB |  | 10 µg/mL | cytopathic effect | 35% |
| c1ccc(C2SCc3nc4cc5ccccc5cc4n32)cc1 | CEM + CEM-SS | RF |  | 200 µM |  | 15.01% |
| CCCCCCCCCCCCCCCC(=O)OC[C@H]1O[C@@H](n2cnc3c(N)ncnc32)[C@@H]1CO | MT-4 |  |  | 100 µg/mL | antigen | 99.9% |
| CCOC(=O)/C=C/c1ccc(OC(=O)CCC(=O)Oc2c(C)c(C)c3c(c2C)CC[C@@](C)(CCC[C@H](C)CCC[C@H](C)CCCC(C)C)O3)cc1 | U1/HIV-1 (TNF-alpha stimulated) + U1 |  |  | 1 µM |  | 22% |
| CC(=O)CCCCn1c(=O)c2c(ncn2C)n(C)c1=O | PBMC |  |  | 250 µM | RT activity | 70% |
| O=C1NC(=S)NNC12c1ccccc1-c1ccccc12 | CEM |  |  | 200 µM | cytopathic effect / XTT | 12.89% |
| C[C@H](NC(=O)[C@]12CCC(C)(C)C[C@H]1C1=CC[C@@H]3[C@@]4(C)C[C@@H](O)[C@H](O)C(C)(C)[C@@H]4CC[C@@]3(C)[C@]1(C)CC2)C(=O)NCC(=O)O | MT-2 | pNL4-3 |  | 25 µM | p24 / ELISA | -84.8% |